The target in assay [1] is EDC/NHS-treated triple mutant toxin B (SEQ ID NO: 6) (Clostridium difficile (strain 630 …)).
The target in assay [2] is Triple mutant toxin B (SEQ ID NO: 6), not chemically treated (Clostridium difficile (strain 630 …)). Kind of assay: dot blot; None, Triple mutant TcdB.
Assay [3] deals with Formalin-inactivated triple mutant toxin B (SEQ ID NO: 6) (Clostridium difficile (strain 630 …)).
In assay [4] the target is Triple mutant toxin B (SEQ ID NO: 6), untreated (Clostridium difficile (strain 630)). The assay is described as follows: dot blot, non-denaturing conditions; sample L44905-86-01 untreated control.

B1: B59-3 mAb (antibody, V domains shown)
VH: QVQLQQPGAELVKPGASVKLSCKASGYTFTSYWMHWVKQRPGQGLEWIGVINPSNGRSTYSEKFKTTATVTVDKSSSTAYMQLSILTSEDSAVYYCARAYYSTSYYAMDYWGQGTSVTVSS
VL: VLMTQSPLSLPVSLGDQASISCRSSQNIVHSNGNTYLEWYLQKPGQSPKLLIYKVSNRFSGVPDRFSGSGSGTYFTLKISRVEAEDLGVYYCFQGSHFPFTFGTGTKLEIKR
For the molecule B1, the binding result in assay [1], in assay [2] and in assay [3] was “binds” each time.

B2: B59-3 mAb (C. difficile TcdB neutralizing antibody) (antibody, V domains shown)
VH: B1 VH
VL: B1 VL
As to B2, the binding result in assay [4] is listed as “binds”.

B3: B8-26 mAb (antibody, V domains shown)
VH: QVQLQQPGAELVKPGAPVKLSCKASGYSFTSYWMNWVKQRPGRGLEWIGRIDPSNSEIYYNQKFKDKATLTVDKSSSTAYIQLSSLTSEDSAVYYCASGHYGSIFAYWGQGTTLTVSS
VL: VQITQSPSYLAASPGETITINCRASKSISKYLAWYQEKPGKTNKLLLYSGSTLQSGIPSRFSGSRSGTDFTLIISSLEPEDSAMYYCQQHNEYPLTFGAGTKLELKR
For the molecule B3, the binding result in assay [1], in assay [2] and in assay [3] was “binds” throughout.

B4: B8-26 mAb (C. difficile TcdB neutralizing antibody) (antibody, V domains shown)
VH: B3 VH
VL: B3 VL
With B4, in assay [4], the binding result is given as “binds”.

For the origin of these results see patent US20230391835A1 (Pfizer, published 2023).
